{"source": "paper PMC3328272", "about": "“HIV-1 Nef interaction influences the ATP-binding site of the Src-family kinase, Hck” (BMC Chemical Biology, 2012)", "key": {"mHck-TA-HART + Nef-SF2": {"target": "T1, mHck-TA-HART + Nef-SF2 (Mus musculus, UniProt P08103, A89S/E88T/E93W/H91F/I90P/Q521E/Q522E/Q523I/R92P/T331A)", "T1 construct": "the N-terminal unique domain was replaced with a hexahistidine tag; hexahistidine (N); made in house; host or cells: Hck: Sf9 insect cells; Nef: E. coli", "assay": "biochemical", "experimental": "(§1) Protein-tyrosine kinase assays were performed using the FRET-based Z'-Lyte kinase assay kit and Tyr-2 peptide substrate according to the manufacturer's instructions (Life Technologies) and our previous work. All assays were performed in quadruplicate in low-volume, non-binding 384-well plates (Corning). To determine the Km for ATP, time course experiments were run at fixed concentrations of substrate (1 μM) and kinase in the presence of an ATP concentration range from 0 to 500 μM. The Km for ATP was then calculated from a plot of ATP concentration against initial reaction velocity followed by non-linear regression analysis (GraphPad Prism). For inhibition experiments, the assay was first optimized to determine the amount of kinase or kinase plus Nef (1:10 molar ratio) necessary to phosphorylate ~50% of the Tyr-2 peptide substrate in the presence of an ATP concentration equal to twice the Km. […] Fluorescence was assessed at an excitation wavelength of 400 nm; coumarin fluorescence and the fluorescein FRET signal were monitored at 445 and 520 nm, respectively. […] Raw fluorescence values were corrected for background, and reaction endpoints calculated as emission ratios of coumarin fluorescence divided by the fluorescein FRET signal. […] IC50 values were calculated using a sigmoidal curve fit using GraphPad Prism. […]"}, "mHck-TA + Nef-Consensus": {"target": "T2, mHck-TA + Nef-Consensus (Mus musculus, UniProt P08103, Q521E/Q522E/Q523I/T331A)", "T2 construct": "the N-terminal unique domain was replaced with a hexahistidine tag; hexahistidine (N); made in house; host or cells: Hck: Sf9 insect cells; Nef: E. coli", "assay": "Z'-Lyte in vitro kinase assay, mHck-TA + Nef-Consensus", "format": "biochemical", "conditions": "mHck-TA + Nef-Consensus (10-fold molar excess); ATP at twice the Km; read-out: IC50, NaPP1", "experimental": "as §1"}, "[1]": {"target": "mHck-TA-HART + Nef-Consensus (Mus musculus, UniProt P08103, A89S/E88T/E93W/H91F/I90P/Q521E/Q522E/Q523I/R92P/T331A)", "assay": "Z'-Lyte in vitro kinase assay, mHck-TA-HART + Nef-Consensus", "format": "biochemical", "experimental": "as §1"}, "mHck + Nef-SF2": {"target": "T3, mHck + Nef-SF2 (Mus musculus, UniProt P08103, Q521E/Q522E/Q523I)", "T3 construct": "the N-terminal unique domain was replaced with a hexahistidine tag; hexahistidine (N); made in house; host or cells: Hck: Sf9 insect cells; Nef: E. coli", "assay": "Z'-Lyte in vitro kinase assay, mHck + Nef-SF2", "format": "biochemical", "conditions": "mHck + Nef-SF2 (10-fold molar excess); ATP at twice the Km; read-out: IC50, NaPP1", "experimental": "as §1"}, "mHck-TA + Nef-SF2": {"target": "T4, mHck-TA + Nef-SF2 (Mus musculus, UniProt P08103, Q521E/Q522E/Q523I/T331A)", "T4 construct": "the N-terminal unique domain was replaced with a hexahistidine tag; hexahistidine (N); made in house; host or cells: Hck: Sf9 insect cells; Nef: E. coli", "assay": "Z'-Lyte in vitro kinase assay, mHck-TA + Nef-SF2", "format": "biochemical", "conditions": "mHck-TA + Nef-SF2 (10-fold molar excess); ATP at twice the Km; read-out: IC50, NaPP1", "experimental": "as §1"}}}
{"smiles": "CC(C)(C)n1nc(-c2cccc3ccccc23)c2c(N)ncnc21", "note": "[NaPP1, reference compound]", "values": [{"measurement": "IC50", "setting": "mHck-TA-HART + Nef-SF2", "value": "2.4 ± 0.3", "unit": "nM"}, {"measurement": "IC50", "setting": "mHck-TA + Nef-Consensus", "value": "37.6 ± 4.6", "unit": "nM"}, {"measurement": "IC50", "setting": "[1]", "value": "3.2 ± 0.2", "unit": "nM"}, {"measurement": "IC50", "setting": "mHck + Nef-SF2", "value": "> 1000", "unit": "nM"}, {"measurement": "IC50", "setting": "mHck-TA + Nef-SF2", "value": "47.4 ± 6", "unit": "nM"}]}
